Source: PMC12040169 (PLOS Biology, 2025)

Test system: HeLa
Settings: bulk resorufin, single well; 28.5 h, 10 µM

| SMILES | % viability [%] |
| --- | --- |
| O=C(OC1CN2CCC1CC2)c1ccccc1 (centres unmarked) | 0.9303 |
| NCCSP(=O)(O)O | 0.8485 |
